Measured values from several laboratories, pooled; numbers as filed in NIAID ChemDB.

Common to all: enzyme or target tests

ICn is the concentration giving n% inhibition. Neighbouring rows are from separate reports. Blank or dashed fields: not listed here. Two numbers with a dash give a range or band. Inhibition is in % at the dose shown (toxicity tests: loss of growth or viability).

smiles	method	organism	read-out	target	mutations	dose	value
CCC(=O)c1cc(=O)c(O)c2n1CCN(Cc1ccc(Cl)c(Cl)c1)C2=O	ELISA	HIV-1	IC50	Integrase	-	-	<0.01 µM
COC(=O)CCC(=O)NCCC(C)(C)CN(C[C@@H](O)[C@H](Cc1ccccc1)NC(=O)O[C@H]1CO[C@H]2OCC[C@H]21)S(=O)(=O)c1ccc2c(c1)OCO2	fluorescence	HIV-1	Ki	Protease	-	-	<0.001 µM
COCCNC(=O)c1cn2ccn(Cc3ccc(F)cc3)c(=O)c2c(O)c1=O	ELISA	HIV-1	IC50	Integrase	-	-	0.01–0.1 µM
CN(C)C(=O)OCCCCC(C)(C)CN(C[C@@H](O)[C@H](Cc1ccccc1)NC(=O)O[C@H]1CO[C@H]2OCC[C@H]21)S(=O)(=O)c1ccc2c(c1)OCO2	fluorescence	HIV-1	Ki	Protease	-	-	<0.001 µM
COc1ccc(N2CCN(c3cncc(-c4ccccc4C)n3)CC2)cc1OC	-	Cytomegalovirus	IC50	UL97 kinase	-	-	<100 µM
Cn1cc2c(c(O)c1=O)C(=O)N(Cc1ccc(Cl)c(Cl)c1)CC2	ELISA	HIV-1	IC50	Integrase	-	-	<0.01 µM
CC(C)(CCCNC(=O)O[C@@H]1CCOC1)CN(C[C@@H](O)[C@H](Cc1ccccc1)NC(=O)O[C@H]1CO[C@H]2OCC[C@H]21)S(=O)(=O)c1ccc2c(c1)OCO2	fluorescence	HIV-1	Ki	Protease	-	-	<0.001 µM
CC(=O)c1cccc(-c2cncc(N3CCN(c4cccc(C)c4C)CC3)n2)c1	-	Cytomegalovirus	IC50	UL97 kinase	-	-	<100 µM
CCCN=C(NC#N)NCCC(C)(C)CN(C[C@@H](O)[C@H](Cc1ccccc1)NC(=O)O[C@H]1CO[C@H]2OCC[C@H]21)S(=O)(=O)c1ccc2c(c1)OCO2	fluorescence	HIV-1	Ki	Protease	-	-	<0.001 µM
O=c1ccn2ccn(CCCc3ccc(Cl)cc3)c(=O)c2c1O	ELISA	HIV-1	IC50	Integrase	-	-	0.01–0.1 µM
COC(=O)NCCCCC(C)(C)CN(C[C@@H](O)[C@H](Cc1ccccc1)NC(=O)[C@@H](NC(=O)OC)C(C)(C)C)S(=O)(=O)c1ccc2c(c1)OCO2	fluorescence	HIV-1	Ki	Protease	-	-	<0.001 µM
CSc1ccc(-c2cnc(N)c(N3CCN(c4ccncc4)CC3)n2)cc1	-	Cytomegalovirus	IC50	UL97 kinase	-	-	<1 µM
Nc1nc2c(ncn2[C@H]2CO[C@@H](COP(=O)(O)OP(=O)(O)OP(=O)(O)O)O2)c(=O)[nH]1	radiometric	HIV	Ki	Reverse transcriptase	RT-Q151M	-	0.093 µM
Cc1ccc(N2CCN(c3cncc(-c4csc5ccccc45)n3)CC2)cc1	-	Cytomegalovirus	IC50	UL97 kinase	-	-	<100 µM
CCOC(=O)NCCCC(C)(C)CN(C[C@@H](O)[C@H](Cc1ccccc1)NC(=O)O[C@H]1CO[C@H]2OCC[C@H]21)S(=O)(=O)c1ccc(N)cc1	fluorescence	HIV-1	Ki	Protease	-	-	<0.001 µM
CC(C)(C)CC(=O)Nc1cn2c(c(O)c1=O)C(=O)N(Cc1ccc(F)c(Cl)c1)CC2	ELISA	HIV-1	IC50	Integrase	-	-	0.01–0.1 µM
COc1ccc(S(=O)(=O)NCCCCC(C)(C)CN(C[C@@H](O)[C@H](Cc2ccccc2)NC(=O)O[C@H]2CO[C@H]3OCC[C@H]32)S(=O)(=O)c2ccc3c(c2)OCO3)cc1	fluorescence	HIV-1	Ki	Protease	-	-	<0.001 µM
Cc1ccc(-c2cncc(N3CCN(c4ccc(F)cc4)CC3)n2)cc1	-	Cytomegalovirus	inhibition	UL97 kinase	-	1 µM	<50%
O=C(O)CP(=O)(O)O	-	Epstein-Barr virus	inhibition	DNA polymerase	-	1 µg/mL	49.2%
COc1ccccc1N1CCN(c2cncc(-c3ccc4ccccc4c3)n2)CC1	-	Cytomegalovirus	inhibition	UL97 kinase	-	1 µM	<50%
CC(C)(CCCN)CN(C[C@@H](O)[C@H](Cc1ccccc1)NC(=O)O[C@H]1CO[C@H]2OCC[C@H]21)S(=O)(=O)c1cccc2c1OCCO2	fluorescence	HIV-1	Ki	Protease	-	-	<0.001 µM
CC(=O)c1ccc(N2CCN(c3cncc(-c4ccccc4C(C)=O)n3)CC2)cc1	-	Cytomegalovirus	IC50	UL97 kinase	-	-	<100 µM
O=C(O[C@@H]1O[C@@H]2COC(=O)c3cc4c(O)c(O)c3-c3c(cc(O)c(O)c3O)C(=O)O[C@H]2[C@H](OC(=O)c2cc(O)c(O)c(O)c2)[C@H]1OC(=O)c1cc(O)c(O)c(O)c1Oc1cc2c(c(O)c1O)-c1c(cc(O)c(O)c1O)C(=O)OC[C@H]1OC(O)[C@H](OC(=O)c3cc(O)c(O)c(O)c3O4)[C@@H](OC(=O)c3cc(O)c(O)c(O)c3)[C@@H]1OC2=O)c1cc(O)c(O)c(O)c1	-	Epstein-Barr virus	inhibition	DNA polymerase	-	7.5 µg/mL	67.3%
Nc1ncc(-c2ccc3ccccc3c2)nc1N1CCN(c2ccncc2)CC1	-	Cytomegalovirus	IC50	UL97 kinase	-	-	<1 µM
O=C1c2c(O)c(=O)c(-c3nccs3)cn2CCN1CCCc1cccc(F)c1	ELISA	HIV-1	IC50	Integrase	-	-	0.01–0.1 µM
COc1ccc(N2CCN(c3cncc(-c4ccc(C(F)(F)F)cc4)n3)CC2)cc1	-	Cytomegalovirus	inhibition	UL97 kinase	-	1 µM	<50%
CC(C)N(C(=O)NCCCC(C)(C)CN(C[C@@H](O)[C@H](Cc1ccccc1)NC(=O)O[C@H]1CO[C@H]2OCC[C@H]21)S(=O)(=O)c1ccc2c(c1)OCO2)C(C)C	fluorescence	HIV-1	Ki	Protease	-	-	<0.001 µM
Cc1cn(Cc2cccc(F)c2)c(=O)c2c(O)c(=O)c(-c3ccccn3)cn12	ELISA	HIV-1	IC50	Integrase	-	-	0.01–0.1 µM
COc1ccc(S(=O)(=O)N(C[C@@H](O)[C@H](Cc2ccccc2)NC(=O)O[C@H]2CO[C@H]3OCC[C@H]32)CC(C)(C)CCCNC(=O)NCC(N)=O)cc1	fluorescence	HIV-1	Ki	Protease	-	-	<0.001 µM
O=C(Nc1cn2ccn(Cc3cccc(Cl)c3)c(=O)c2c(O)c1=O)C1CCCC1	ELISA	HIV-1	IC50	Integrase	-	-	0.01–0.1 µM

A second listing of 4 rows from above:

| smiles | method | organism | read-out | target | mutations | dose | value |
|---|---|---|---|---|---|---|---|
| CN(C)C(=O)OCCCCC(C)(C)CN(C[C@@H](O)[C@H](Cc1ccccc1)NC(=O)O[C@H]1CO[C@H]2OCC[C@H]21)S(=O)(=O)c1ccc2c(c1)OCO2 | fluorescence | HIV-1 | Ki | Protease | - | - | <0.001 µM |
| O=C(O)CP(=O)(O)O | - | Epstein-Barr virus | inhibition | DNA polymerase | - | 1 µg/mL | 49.2% |
| CCOC(=O)NCCCC(C)(C)CN(C[C@@H](O)[C@H](Cc1ccccc1)NC(=O)O[C@H]1CO[C@H]2OCC[C@H]21)S(=O)(=O)c1ccc(N)cc1 | fluorescence | HIV-1 | Ki | Protease | - | - | <0.001 µM |
| CCC(=O)c1cc(=O)c(O)c2n1CCN(Cc1ccc(Cl)c(Cl)c1)C2=O | ELISA | HIV-1 | IC50 | Integrase | - | - | <0.01 µM |